A mixed list of measured activities; the numbers were collected in NIAID ChemDB.

All rows: tests in culture; organism: HIV-1

Two numbers with a dash give a range or band.

| SMILES | conditions | measure | strain | cells | method | changes | value |
|---|---|---|---|---|---|---|---|
| O=C(NCCO)c1[nH]c2ccc(Cl)cc2c1S(=O)(=O)c1ccccc1 | - | EC50 | - | MT-4 | cytopathic effect / MTT | RT-K103N Y181C | 4.2 µM |
| CN(Cc1nc2ccccc2[nH]1)Cc1ncccc1CCC#N | - | EC50 | IIIB | C8166 | syncytia | - | 12.9 µM |
| Cc1cccc(S(=O)(=O)c2c(C(=O)NCCO)[nH]c3ccc(Cl)cc23)c1 | - | EC50 | - | MT-4 | cytopathic effect / MTT | RT-Y181C | 0.1 µM |
| CC(=O)O[C@@H]1[C@@H](OC(C)=O)[C@H](C)O[C@@H]2Oc3c(c(=O)n(C)c(=O)n3C)S[C@@H]21 | - | EC90 | LAI | PBMC | RT activity | - | 123 µM |
| Cc1cc(S(N)(=O)=O)ccc1NC(=O)COc1ccc(Cl)cc1C(=O)c1cc(F)cc(C(F)(F)F)c1 | - | EC50 | IIIB | HELA MAGI | luciferase | RT-K101E | 0.0034 µM |
| C#CCOCn1c(Cc2ccccc2)c(CO)c(=O)[nH]c1=O | - | EC50 | IIIB | MT-4 | MTT | K103N + Y181C | >100 µM |
| Cc1cc(C)cc(Sc2c(C(=O)NNCCO)[nH]c3ccc(Cl)cc23)c1 | - | EC50 | IIIB | C8166 | cytopathic effect / MTT | - | 0.1 µM |
| CC(=O)OC[C@H]1O[C@@H]2Oc3c(c(=O)n(C)c(=O)n3C)S[C@@H]2[C@@H](OC(C)=O)[C@H]1OC(C)=O | - | EC50 | LAI | PBMC | RT activity | - | 13.6 µM |
| O=C(NCc1ccc(F)cc1)c1nc2n(c(=O)c1O)CCOC21CCN(C(=O)OCc2ccccc2)CC1 | - | EC50 | NL4-3 | MT-2 | luciferase / reporter gene | - | 0.001–0.01 µM |
| CCOCn1c(Cc2cccc(CCC=O)c2)c(CC)c(=O)[nH]c1=O | - | EC50 | IIIB | MT-4 | cytopathic effect / MTT | - | 1.9 µM |
| Cc1ncnn1-c1cc(F)ccc1CNC(=O)c1nc2n(c(=O)c1O)CCOC21CCN(C(=O)C(=O)N(C)C)C1 | - | EC50 | NL4-3 | MT-2 | luciferase / reporter gene | - | ≥0.1 µM |
| Cc1cc2c(cc1Cl)SC(C(=O)c1ccc3ccccc3c1)=NS2(=O)=O | - | EC50 | - | CEM | cytopathic effect / XTT | - | >200 µM |
| CCC(O)(c1cccc(OC)c1)c1c(C)c(=O)[nH]c(=O)n1COCc1ccccc1 | - | EC50 | IIIB | MT-4 | MTT | - | >109 µM |
| CCC(=O)c1ccc(F)c([C@@H]2C[C@@H]2NC(=O)Nc2ccc(C#N)cn2)c1O | - | EC50 | LAI | TZM-bl | β-galactosidase / luminescence | NNRTI-resistant (RT L100V) | 0.00506 µM |
| CCN(CC)C(=S)N=Nc1c(O)n(C)c2ccccc12 | chronic infection | EC50 | - | H9/HIV-1 + H9 | plaque count | - | 0.4 µg/mL |
| CC(=O)OC[C@H]1O[C@@H]2Oc3[nH]c(=O)[nH]c(=O)c3S[C@@H]2[C@@H](OC(C)=O)[C@H]1OC(C)=O | - | EC50 | LAI | PBMC | RT activity | - | >100 µM |
| C=CCOc1cccc(Cc2[nH]c(=S)[nH]c(=O)c2CC)c1 | - | EC50 | RT-Y181C Mutant NNRTI-resistant | MT-4 | cytopathic effect / MTT | - | >20 µM |
| Cc1cc(S(N)(=O)=O)ccc1NC(=O)COc1ccccc1C(=O)c1cc(Cl)cc(C#N)c1 | - | EC50 | - | HeLa MAGI + HeLa | β-galactosidase | RT-K103N P225H | <0.005 µM |
| Cc1ccc(S(=O)(=O)c2c(C(=O)NCCO)[nH]c3ccc(Cl)cc23)cc1 | - | EC50 | IIIB | C8166 | cytopathic effect / MTT | - | 0.085 µM |
| O=C(NCc1ccc(F)cc1F)c1cn2c(c(O)c1=O)C(=O)N1C3CCC(C3)OC1C2 | 100% human serum | EC50 | NL4-3 | MT-4 | GFP | - | 0.466 µM |
| CCOCn1c(Cc2cccc(OCC3CO3)c2)c(CC)c(=O)[nH]c1=O | - | EC50 | IIIB | MT-4 | cytopathic effect / MTT | - | 14 µM |
| O=C(NCc1ccc(F)cc1-n1cncn1)c1nc2n(c(=O)c1O)CCOC21CCN(C(=O)c2ccccc2)CC1 | - | EC50 | NL4-3 | MT-2 | luciferase / reporter gene | - | 0.001–0.01 µM |
| COc1ccc(C(=O)C2=NS(=O)(=O)c3cc(C)c(Cl)cc3S2)cc1 | - | EC50 | - | CEM | cytopathic effect / XTT | - | 205.8 µM |
| CCC(c1cccc(C)c1)c1c(C)c(=O)[nH]c(=O)n1COCc1ccccc1 | - | EC50 | IIIB | MT-4 | MTT | - | >32.84 µM |
| C=CCOCn1c(Cc2cccc(OCC=C)c2)c(CC)c(=O)[nH]c1=O | - | EC50 | RT-Y181C Mutant NNRTI-resistant | MT-4 | cytopathic effect / MTT | - | 4 µM |
| Cc1cc2c(cc1Cl)SC(C(=O)c1ccccc1)=NS2(=O)=O | - | EC50 | - | CEM | cytopathic effect / XTT | - | 80.9 µM |
| CN(Cc1nc2ccccc2[nH]1)Cc1ncccc1CCC(N)=O | - | EC50 | IIIB | C8166 | syncytia | - | 19.1 µM |
| Cc1ccccc1S(=O)(=O)c1c(C(=O)NNCCO)[nH]c2ccc(Cl)cc12 | - | EC50 | IIIB | C8166 | cytopathic effect / MTT | - | 0.03 µM |
| CN1N=C(N)c2cn([C@@H]3O[C@H](COP(=O)(O)O)[C@@H](O)[C@H]3O)c3ncnc1c23 | - | EC50 | IIIB | - | XTT | - | 0.01 µg/mL |
| CC(=O)OCC1=C[C@@H]2C(=O)[C@]3(C=C(C)[C@H](OC(C)=O)[C@@]3(O)[C@@H]1OC(C)=O)[C@H](C)C[C@@H]1[C@H]2C1(C)C | - | EC50 | IIIB MKC-442-resistant | MT-4 | cytopathic effect / MTT | - | 0.051 µM |
| CCOCn1c(Cc2ccccc2)c(C(C)C)c(=O)[nH]c1=O | - | EC50 | IIIB | MT-4 | cytopathic effect / MTT | - | 0.03 µM |
| CC(=O)NCCCc1cccnc1CN(C)Cc1nc2ccccc2[nH]1 | - | EC50 | IIIB | C8166 | syncytia | - | 9.48 µM |
| O=C(O)CN(CCCN(CCN(CC(=O)O)CC(=O)O)Cc1cnc2c(O)cccc2c1)CC(=O)O | - | EC50 | HXB2 | MT-4 | RT activity | - | 19.3 µM |
| O=c1[nH]c(=S)ccn1[C@@H]1O[C@H](COP(=O)(O)O)[C@@H](O)[C@H]1O | - | EC50 | IIIB | MT-2 | syncytia / visual reading | - | 11.7 µM |
| CCN1c2ncc(CCOc3ccc(NC(=O)/C=C/C(=O)O)cc3C)cc2C(=O)N(C)c2cccnc21 | - | EC50 | IIIB | C8166 | p24 | - | >0.05 µM |
| CC(=O)O[C@@H]1[C@@H](OC(C)=O)[C@H](C)O[C@@H]2Oc3[nH]c(=O)[nH]c(=O)c3S[C@@H]21 | - | EC50 | LAI | PBMC | RT activity | - | 41.4 µM |
| CCc1c(Cc2cc(C)cc(C)c2)n(Cc2ccc(C#CCO)cc2)c(=O)[nH]c1=O | - | EC50 | - | MT-4 | MTT | - | 0.004 µM |
| C=CCOc1cccc(Cc2nc(N(C)C)[nH]c(=O)c2CC)c1 | - | EC50 | RT-Y181C Mutant NNRTI-resistant | MT-4 | cytopathic effect / MTT | - | >20 µM |
| Cc1cn([C@H]2C[C@H](N=[N+]=[N-])[C@@H](CO)O2)c(=O)[nH]c1=O | - | EC50 | SF162 | TZM-bl | luciferase / luminescence | - | 0.00523 µM |
| CN(Cc1nc2ccccc2[nH]1)Cc1ncccc1CCC(=O)O | - | EC50 | IIIB | C8166 | syncytia | - | >200 µM |
| C=CCCCC[C@H](NC(=O)c1cccc(O)c1OCCC=C)[C@H](O)CN(CC(C)C)S(=O)(=O)c1ccc(OC)cc1 | - | EC75 | LAI | MT-2 | cytopathic effect / MTT | - | >1 µM |
| C=CCOCn1c(Cc2ccccc2)c(CF)c(=O)[nH]c1=O | - | EC50 | IIIB | MT-4 | MTT | EFV:K103R+V179D+P225H | >100 µM |
| CC(=O)N1CCC2(CC1)OCCCn1c2nc(C(=O)NCc2ccc(F)cc2)c(O)c1=O | - | EC50 | NL4-3 | MT-2 | luciferase / reporter gene | - | 0.001–0.01 µM |
| Cn1cc(C(=O)O)c(=O)c2cc(F)c(N3CC=C(c4ccccc4)CC3)c(C(F)(F)F)c21 | - | EC50 | - | CEM | ELISA | - | 0.11 µM |
| CN(Cc1nc2ncccc2[nH]1)Cc1ncccc1CCC#N | - | EC50 | IIIB | C8166 | syncytia | - | 77.4 µM |
| CCN1c2ncc(CCOc3ccc(C(=O)Nc4cccnc4C)cc3C)cc2C(=O)N(C)c2cccnc21 | - | EC50 | IIIB | C8166 | p24 | - | <0.01 µM |
| C#CCOCn1c(Cc2ccccc2)c(CF)c(=O)[nH]c1=O | - | EC50 | - | MT-4 | MTT | - | 10 µM |
| CCCCCCCCCCCCCCCCOP(=O)(OCCO[C@@H]1O[C@H](CO)[C@@H](O)[C@H](O)[C@@H]1O)OC[C@H]1O[C@@H](n2cc(C)c(=O)[nH]c2=O)C[C@@H]1N=[N+]=[N-] | 7 d | EC50 | LAV-Bru | PBL | RT activity | - | >1 µM |
| O=C(NNCCO)c1[nH]c2ccc(Cl)cc2c1S(=O)(=O)c1ccccc1 | - | EC50 | - | MT-4 | cytopathic effect / MTT | RT-K103N Y181C | 20 µM |
| CCOCn1c(Cc2cccc(OCC=O)c2)c(CC)c(=O)[nH]c1=O | - | EC50 | IIIB | MT-4 | cytopathic effect / MTT | - | 8 µM |
| O=C(O)C(O)c1ccccc1 | - | EC50 | BaL | Macrophage | p24 | - | <100 µg/mL |
| C=CCOCn1c(Cc2ccccc2)c(CO)c(=O)[nH]c1=O | - | EC50 | - | MT-4 | MTT | - | 6 µM |
| Cc1cc(Cl)cc2c1S(=O)(=O)N=C(C(=O)c1ccc(Cl)c(Cl)c1)S2 | - | EC50 | - | CEM | cytopathic effect / XTT | - | >200 µM |
| C=C(c1cccc2ccccc12)c1c(C)c(=O)[nH]c(=O)n1COCc1ccccc1 | - | EC50 | IIIB | MT-4 | MTT | - | >30.97 µM |
| COC(=O)N1CCC2(CC1)OCCCn1c2nc(C(=O)NCc2ccc(F)cc2-n2ncnc2C)c(O)c1=O | - | EC50 | NL4-3 | MT-2 | luciferase / reporter gene | - | 0.001–0.01 µM |
| C=CCOc1cccc(Cc2nc(SC(C)C)nc(OC(C)C)c2CC)c1 | - | EC50 | IIIB | MT-4 | cytopathic effect / MTT | - | >100 µM |
| Cc1ccc(S(=O)(=O)c2c(C(=O)NNCCO)[nH]c3ccc(Cl)cc23)cc1 | - | EC50 | - | MT-4 | cytopathic effect / MTT | RT-Y181C | 0.03 µM |
| CCN1c2ncc(CCOc3ccc(-c4ccc(CC(=O)O)cc4)cc3)cc2C(=O)N(C)c2cccnc21 | - | EC50 | - | C8166 | p24 | RT-K103N Y181C | >0.05 µM |
| Cc1cn([C@H]2C[C@H](N=[N+]=[N-])[C@@H](COP(=O)(O)OCCO[C@H]3O[C@H](CO)[C@@H](O)[C@H](O)[C@@H]3O)O2)c(=O)[nH]c1=O | 7 d | EC50 | LAV-Bru | PBL | RT activity | - | <1 µM |
| CCN1c2ncc(CCOc3ccc(-c4ccc[n+]([O-])c4)cc3C)cc2C(=O)N(C)c2cccnc21 | - | EC50 | IIIB | C8166 | p24 | - | <0.01 µM |
| CN(Cc1ccc2ccccc2n1)Cc1ncccc1CCC#N | - | EC50 | IIIB | C8166 | syncytia | - | 15 µM |
| Cc1ccccc1S(=O)(=O)c1c(C(=O)NCCO)[nH]c2ccc(Cl)cc12 | - | EC50 | IIIB | C8166 | cytopathic effect / MTT | - | 0.016 µM |
| Cc1c(C(C)(O)c2ccc(F)cc2)n(COCc2ccccc2)c(=O)[nH]c1=O | - | EC50 | IIIB | MT-4 | MTT | - | >237 µM |

Repeating the first 5 entries:

SMILES	conditions	measure	strain	cells	method	changes	value
O=C(NCCO)c1[nH]c2ccc(Cl)cc2c1S(=O)(=O)c1ccccc1	-	EC50	-	MT-4	cytopathic effect / MTT	RT-K103N Y181C	4.2 µM
CN(Cc1nc2ccccc2[nH]1)Cc1ncccc1CCC#N	-	EC50	IIIB	C8166	syncytia	-	12.9 µM
Cc1cccc(S(=O)(=O)c2c(C(=O)NCCO)[nH]c3ccc(Cl)cc23)c1	-	EC50	-	MT-4	cytopathic effect / MTT	RT-Y181C	0.1 µM
CC(=O)O[C@@H]1[C@@H](OC(C)=O)[C@H](C)O[C@@H]2Oc3c(c(=O)n(C)c(=O)n3C)S[C@@H]21	-	EC90	LAI	PBMC	RT activity	-	123 µM
Cc1cc(S(N)(=O)=O)ccc1NC(=O)COc1ccc(Cl)cc1C(=O)c1cc(F)cc(C(F)(F)F)c1	-	EC50	IIIB	HELA MAGI	luciferase	RT-K101E	0.0034 µM

ECn is the concentration giving n% inhibition of infection, replication or growth. Rows are shuffled and stem from different studies. Blank or dashed fields: not listed here.